A mixed list of measured activities; the numbers were collected in NIAID ChemDB.

Common to all: tests in culture; species: HIV-1; method: XTT; read-out: EC50

ECn: concentration that inhibits the pathogen or its effect by n%. Conditions beyond the fields shown may differ between rows.

CCN(C(=O)[C@H](Cc1ccccc1)NC(=O)CNC(=O)c1ccccc1)c1ccccc1 ; strain: NL4-3 ; cell line: TZM-gfp ; result: 2.5 µM
CCOC[C@H]1CN(C(C)C)C(=O)c2c(O)c(=O)c(-c3nnc(Cc4ccc(F)cc4)s3)cn21 ; strain: IIIB ; cell line: CEM ; result: 0.008 µM
CC1(C)OCC(C2OC3OC(C)(C)OC3C2OS(=O)(=O)C(F)(F)F)O1 ; cell line: CEM MT-2 + CEM ; result: >100 µg/mL
O=S(=O)([O-])c1cc(N=Nc2cc(S(=O)(=O)[O-])c3cccnc3c2O)ccc1/C=C/c1ccc(N=Nc2cc(S(=O)(=O)[O-])c3cccnc3c2O)cc1S(=O)(=O)[O-].[Mg+2].[Mg+2] ; cell line: CEM ; result: 0.88 µM
Nc1nc2c(ncn2[C@H]2C=C[C@@H](CO)[C@@H]2CO)c(=O)[nH]1 ; strain: IIIB ; cell line: MT-4 ; result: >100 µg/mL
S=C(Cc1ccccn1)NCCc1ccccc1 ; strain: WILD TYPE ; cell line: CEM ; result: >200 µM
COC(=O)N[C@H](C(=O)NN(CC[C@@]1(Cc2ccccc2)C(=O)N(C2c3ccccc3C[C@H]2O)C[C@@H]1O)Cc1ccc(Br)cc1)C(C)(C)C ; cell line: MT-4 ; result: 2.5 µM
C/C=C/C=C/C=NC=Nc1ccn([C@H]2C[C@H](CO)[C@@H](CO)O2)c(=O)n1 ; strain: IIIB ; cell line: MT-4 ; result: 13.1 µM
C[C@H]1CO[C@@H]2CN3C=C(C(=O)NCc4ccc5c(ccn5C)c4)C(=O)C(=O)C3C(=O)N12 ; strain: IIIB ; cell line: CEM-SS ; result: 0.111 µM
O=c1nc(N=CN2CCCCC2)ccn1[C@H]1C[C@H](CO)[C@@H](CO)O1 ; strain: TIBO-resistant ; cell line: MT-4 ; result: 4.5 µM
COC(=O)N[C@H](C(=O)NN(CC[C@]1(Cc2ccccc2)C(=O)N(C2c3ccccc3C[C@H]2O)C[C@H]1O)Cc1ccc(Br)cc1)C(C)(C)C ; cell line: MT-4 ; result: 2.5 µM
NCCCC[C@H](NC(=O)c1ccccc1SSc1ccccc1C(=O)N[C@@H](CCCCN)C(=O)O)C(=O)O ; cell line: CEM ; result: >100 µM
COc1cc(C(=O)Sc2ccccc2C(=O)N[C@@H](C)C(N)=O)cc(OC)c1OC ; strain: RF ; cell line: CEM ; result: 2.1 µM
CCc1c(Oc2cc(C)cc(C)c2)n(CC2CC2)c(=O)[nH]c1=O ; strain: IIIB ; cell line: MAGI ; result: 0.00022 µM
CC(C)CC(NC(=O)c1ccccc1SSc1ccccc1C(=O)NC(CC(C)C)C(=O)O)C(=O)O ; cell line: CEM ; result: 8.9 µM
NC(=NCCCCCCN=C(N)/N=C(\N)N1CCN(c2cc3c(cc2F)c(=O)c(C(=O)O)cn3C2CC2)CC1)/N=C(\N)N1CCN(c2cc3c(cc2F)c(=O)c(C(=O)O)cn3C2CC2)CC1 ; strain: IIIB ; cell line: CEM-SS ; result: 12 µg/mL
COC(=O)N[C@H](C(=O)N[C@@H](Cc1ccccc1)[C@@H](O)CN(Cc1ccc(-c2ccccn2)cc1)NC(=O)[C@@H](NC(=O)OC)C(C)(C)C)C(C)(C)C ; strain: IIIB ; cell line: CEM ; result: <4 µM
NS(=O)(=O)c1ccc(C(=O)Nc2ccccc2SSc2ccccc2NC(=O)c2ccc(S(N)(=O)=O)cc2)cc1 ; cell line: CEM ; result: >27 µM
COC(=O)N[C@H](C(=O)NN(CC[C@]1(Cc2ccccc2)C(=O)N(C2c3ccccc3C[C@H]2O)C[C@@H]1O)Cc1ccc(Br)cc1)C(C)(C)C ; cell line: MT-4 ; result: 2.5 µM
O=c1nc(N=CN2CCCC2)ccn1[C@H]1C[C@H](CO)[C@@H](CO)O1 ; strain: IIIB ; cell line: MT-4 ; result: 7.7 µM
CCc1c(Oc2cc(C)cc(C)c2)n(CC2CC=CC2)c(=O)[nH]c1=O ; strain: IIIB ; cell line: CEM ; result: 0.002 µM
CNC(=O)c1ccccc1SSc1ccccc1C(=O)NC ; cell line: CEM ; result: >11 µM
O=S1C[C@@H](O)[C@H](O)CS1 ; strain: RF ; cell line: CEM + CEM-SS ; result: >59 µM
COC(=O)N[C@H](C(=O)NN(CC[C@@]1(Cc2ccccc2)C(=O)N(C2c3ccccc3C[C@H]2O)C[C@@H]1O)Cc1ccc(-c2ccncc2)cc1)C(C)(C)C ; cell line: MT-4 ; result: 2.5 µM
O=c1nc(N=CN2CCOCC2)ccn1[C@H]1C[C@H](CO)[C@@H](CO)O1 ; strain: TIBO-resistant ; cell line: MT-4 ; result: 9.4 µM
CC(=O)O[C@@H]1CSSC[C@H]1OC(C)=O ; strain: RF ; cell line: CEM + CEM-SS ; result: >200 µM
O=S(=O)(O)c1cc(N=Nc2cc(S(=O)(=O)O)c3cccnc3c2O)ccc1/C=C/c1ccc(N=Nc2cc(S(=O)(=O)O)c3cccnc3c2O)cc1S(=O)(=O)O ; cell line: CEM ; result: 1.34 µM
Cc1cn(CC(=O)N[C@@H](Cc2ccccc2)C(=O)N(C)c2ccc(Cl)cc2)c(=O)[nH]c1=O ; strain: NL4-3 ; cell line: TZM-gfp ; result: 1.7 µM
C=C(C)[C@@H]1CC[C@]2(CCNC(C)(C)CN3CCN(C)CC3)CC[C@]3(C)[C@H](CC[C@@H]4[C@@]5(C)CC[C@H](OC(=O)CC(C)(C)C(=O)O)C(C)(C)[C@@H]5CC[C@]43C)[C@@H]12 ; strain: IIIB ; cell line: MT-2 ; result: 0.012 µM
CC1=C(C)CC(COCP(=O)(OCCSC(=O)C(C)(C)C)OCCSC(=O)C(C)(C)C)(n2ccc(N)nc2=O)C1 ; cell line: MT-4 ; result: 39 µM
Nc1nc(N)c2ncn([C@@H]3O[C@H](CO)C[C@@H]3F)c2n1 ; strain: LAI ; cell line: CEM ; result: 37 µM
CC(=O)OCC1OC=C(SC2OC(COC(C)=O)C(OC(C)=O)C(OC(C)=O)C2OC(C)=O)C(OC(C)=O)C1OC(C)=O ; cell line: CEM MT-2 + CEM ; result: >100 µg/mL
CN(C)C=Nc1ccn([C@H]2C[C@H](CO)[C@@H](CO)O2)c(=O)n1 ; strain: IIIB ; cell line: MT-4 ; result: 11.4 µM
CC1=C(C)CC(COCP(=O)(OCCSC(=O)C(C)(C)C)OCCSC(=O)C(C)(C)C)(n2cnc3c(N)ncnc32)C1 ; cell line: MT-4 ; result: 41 µM
CC(=O)O[C@@H]1CSS(=O)C[C@H]1OC(C)=O ; strain: RF ; cell line: CEM + CEM-SS ; result: >22 µM
Nc1c(C(=O)Nc2cccc(C(F)(F)F)c2)sc2ncccc12 ; strain: RF ; cell line: CEM-SS ; result: >316 µM
C[C@H]1CO[C@@H]2CN3C=C(C(=O)NCc4cn5cc(Cl)sc5n4)C(=O)C(=O)C3C(=O)N12 ; strain: IIIB ; cell line: CEM-SS ; result: 0.0289 µM
O[C@@H]1CSSC[C@H]1O ; strain: RF ; cell line: CEM + CEM-SS ; result: >200 µM
CN1N=C(N)c2cn([C@@H]3O[C@H](COP(=O)(O)O)[C@@H](O)[C@H]3O)c3ncnc1c23 ; strain: IIIB ; result: 0.01 µg/mL
O=C(NCc1c(F)cncc1F)C1=CN2C[C@H]3O[C@@H]4CC[C@@H](C4)N3C(=O)C2C(=O)C1=O ; strain: IIIB ; cell line: CEM-SS ; result: 0.0637 µM
CC1=C[C@@H](OCP(=O)(OCCSC(=O)C(C)(C)C)OCCSC(=O)C(C)(C)C)C[C@H]1n1cnc2c(N)ncnc21 ; cell line: MT-4 ; result: 20 µM
Nc1c(C(=O)Nc2ncccn2)sc2nc(-c3ccccc3)cc(C(F)(F)F)c12 ; strain: RF ; cell line: CEM-SS ; result: >63 µM
Cc1cn([C@H]2C=C[C@@H](COC(=O)CCCCCCCCCCC(=O)O)O2)c(=O)[nH]c1=O ; strain: US/92/727 ; cell line: PBMC ; result: 0.0183 µM
NC(=O)CCNC(=O)c1ccccc1SCc1ccc([N+](=O)[O-])o1 ; cell line: Macrophage ; result: 1.61 µM
CCCc1cc(=O)oc2c3c(c4c(c12)OC(C)(C)CC4)O[C@@H](C)[C@H](C)[C@@H]3O ; strain: NL4-3(RT-4XAZT) ; changes: RT-D67N K70R T215Y K219Q ; cell line: CEM + CEM-SS ; result: 0.3 µM
NS(=O)(=O)c1ccc(OC(=O)c2ccccc2SSc2ccccc2C(=O)Oc2ccc(S(N)(=O)=O)cc2)cc1 ; cell line: CEM ; result: >162 µM
CC(=O)O[C@@H]1CSS(=O)(=O)C[C@H]1OC(C)=O ; strain: RF ; cell line: CEM + CEM-SS ; result: >19 µM
Nc1ccn([C@H]2CC[C@@H](CO)O2)c(=O)n1 ; strain: IIIB ; cell line: MT-4 ; result: 0.069 µg/mL
CC(=O)c1cccc(NC(=O)c2sc3nc(C)cc(C)c3c2N)c1 ; strain: RF ; cell line: CEM-SS ; result: >63 µM
CC(C)N(C=Nc1ccn([C@H]2C[C@H](CO)[C@@H](CO)O2)c(=O)n1)C(C)C ; strain: TIBO-resistant ; cell line: MT-4 ; result: 4 µM
CC(=O)OCC1OC(SC2C(OCc3ccccc3)OC(COC(C)=O)C(OC(C)=O)C2OC(C)=O)C(OC(C)=O)C(OC(C)=O)C1OC(C)=O ; cell line: CEM MT-2 + CEM ; result: >100 µg/mL
C[C@@H]1CCO[C@H]2CN3C=C(C(=O)NCc4c(F)cncc4F)C(=O)C(=O)C3C(=O)N12 ; strain: IIIB ; cell line: CEM-SS ; result: 0.0759 µM
CC(=O)OCC1OC(SC2C(OC(C)=O)OC(COC(C)=O)C(OC(C)=O)C2OC(C)=O)C(OC(C)=O)C(OC(C)=O)C1OC(C)=O ; cell line: CEM ; result: 51.4 µg/mL
Nc1nc2c(ncn2[C@@H]2O[C@H](CO)C[C@@H]2F)c(=O)[nH]1 ; strain: LAI ; cell line: CEM ; result: 20 µM
CCc1c(C(=O)c2cc(C)cc(C)c2)n(CC2CC2)c(=O)[nH]c1=O ; strain: IIIB ; cell line: CEM ; result: 0.0002 µM
C[C@H]1CO[C@@H]2CN3C=C(C(=O)NCc4c(F)cc(F)nc4F)C(=O)C(=O)C3C(=O)N12 ; strain: IIIB ; cell line: CEM-SS ; result: 0.0174 µM
COC(=O)N[C@H](C(=O)NN(CC[C@@]1(Cc2ccccc2)C(=O)N(C2c3ccccc3C[C@H]2O)C[C@H]1O)Cc1ccc(-c2cccnc2)cc1)C(C)(C)C ; cell line: MT-4 ; result: 2.5 µM
COCc1cc(C)nc2sc(C(=O)Nc3cccc(C(C)=O)c3)c(N)c12 ; strain: RF ; cell line: CEM-SS ; result: >63 µM
C[C@H]1CO[C@@H]2CN3C=C(C(=O)NCc4ccncc4F)C(=O)C(=O)C3C(=O)N12 ; strain: IIIB ; cell line: CEM-SS ; result: >0.01 µM
CCC(=O)c1ccc(NC(=O)c2ccccc2SSc2ccccc2C(=O)Nc2ccc(C(=O)CC)cc2)cc1 ; cell line: CEM ; result: 16 µM
Cc1nonc1CNC(=O)C1=CN2C[C@H]3OC[C@H](C)N3C(=O)C2C(=O)C1=O ; strain: IIIB ; cell line: CEM-SS ; result: 0.036 µM
CCc1c(Oc2cc(C)cc(C)c2)n(CC2CCC2)c(=O)[nH]c1=O ; strain: IIIB ; cell line: CEM ; result: 0.01 µM
O=C(NCCO)c1ccccc1SSc1ccccc1C(=O)NCCO ; cell line: CEM ; result: 4.5 µM
O=S1(=O)CCCCS1 ; strain: RF ; cell line: CEM + CEM-SS ; result: >5.7 µM
Cc1ccc(N(C)C(=O)[C@H](Cc2ccccc2)NC(=O)CNC(=O)c2ccccc2)cc1 ; strain: NL4-3 ; cell line: TZM-gfp ; result: 1.6 µM
C[C@H]1CO[C@@H]2CN3C=C(C(=O)NCc4nc5ccccc5n4C)C(=O)C(=O)C3C(=O)N12 ; strain: IIIB ; cell line: CEM-SS ; result: 0.0284 µM
O[C@@H]1CSSC[C@@H]1O ; strain: RF ; cell line: CEM + CEM-SS ; result: >20 µM
S=C(CCCc1ccccc1)Nc1ccc(Cl)cn1 ; strain: WILD TYPE ; cell line: CEM ; result: >200 µM